A mixed list of measured activities; the numbers were collected in NIAID ChemDB.

Common to all: growth or infection tests; organism: Herpes simplex virus 1

Neighbouring rows are from separate reports. Blank or dashed fields: not listed here. a–b is a range or a potency band. ECn is the concentration giving n% inhibition of infection, replication or growth.

structure	endpoint	strain	read by	cells	result
CC[C@@]1(Br)C(=O)NC(=O)N([C@H]2C[C@H](O)[C@@H](CO)O2)[C@H]1OC	EC50	E-377	cytopathic effect	HFF	0.67 µM
O=c1[nH]c(=O)n(COC(CO)CO)nc1Cc1ccc(O)cc1	EC50	-	cytopathic effect	HFF	>100 µM
CCCCCCCCCCCCCC(=O)NC(C)(C)C(=O)N1C[C@@H](O)CC1C(=O)N[C@@H](CC(C)C)C(=O)N[C@@H](C)C(=O)N[C@@H](CCC(N)=O)C(=O)N[C@H](CO)CC(C)C	EC50	-	cytopathic effect	VERO	3.5 µM
N#CSc1cn([C@@H]2O[C@H](CO)[C@@H](O)[C@@H]2O)c(=O)[nH]c1=O	EC50	-	cytopathic effect	PRK	4 µg/mL
CON1CCc2c([nH]c3ccccc23)[C@@H]1[C@@H](N)CSC	EC50	VMW1837 (TK-/TK+)	cytopathic effect	PRK	100 µg/mL
O=c1[nH]c(=O)n([C@H]2C[C@H](O)[C@@H](CO)O2)cc1I	EC50	KOS	cytopathic effect	RPMI8226	>4.63 µg/mL
C=C(N=CC)c1nc(-c2cccc(OC)c2)n(C2O[C@H](CO)[C@@H](O)[C@H](O)[C@H]2O)n1	EC50	KOS	cytopathic effect	E6SM	300 µg/mL
C[C@@H]1CC[C@H]2C(C)(C)[C@H](O)CC[C@]2(C)C12Cc1c(O)cc(C=O)c(C=O)c1O2	EC50	-	-	VERO	4.32 µg/mL
O=c1[nH]c(=O)n(COCCO)nc1Cc1ccc(O)cc1	EC50	-	cytopathic effect	HFF	>100 µM
CC[C@@H](O)C1=C[C@@H](n2cnc3c(N)ncnc32)[C@H](O)[C@@H]1O	EC50	B2006 (TK-)	cytopathic effect	E6SM	>400 µg/mL
COC(=N)[C@]1(n2cc(C)c(=O)[nH]c2=O)C[C@H](O)[C@@H](CO)S1	EC50	-	cytopathic effect	HEL	100 µg/mL
Nc1nc2c(ncn2COC(CO)CO)c(=O)[nH]1	EC50	ICI	plaque count	3T3	0.9 µM
CCCc1cn([C@H]2C[C@H](O)[C@@H](CO)O2)c(=O)[nH]c1=O	EC50	B2006 (TK-)	plaque count	HELA BU	>10 µM
O=c1ccn(N2C[C@H](CO)[C@H]2CO)c(=O)[nH]1	EC50	-	plaque count	VERO	>10 µg/mL
Nc1nc(=S)n([C@@H]2O[C@H](CO)[C@@H](O)[C@@H]2O)cc1F	EC50	F	-	-	0.02 µg/mL
Nc1nc2nn(CCOCP(=O)(O)O)nc2c(=O)[nH]1	EC50	VMW1837 (TK-)	cytopathic effect	E6SM	>400 µg/mL
Nc1ccn(CC[C@H](O)CCO)c(=O)n1	EC50	B2006 (TK-)	cytopathic effect	E6SM	>400 µg/mL
C#C[C@H](O)C1=C[C@@H](n2cnc3c(N)ncnc32)[C@H](O)[C@@H]1O	EC50	B2006 (TK-)	cytopathic effect	E6SM	>100 µg/mL
Nc1nc2c(ncn2C[C@]2(CO)C[C@H]2CO)c(=O)[nH]1	EC50	-	plaque count	VERO	0.02 µg/mL
COC(=O)[C@H](C)NP(=O)(OCC1C/C1=C/n1cnc2c(=O)[nH]c(N)nc21)Oc1ccccc1	EC50	-	ELISA	BSC-1	>100 µM
CO[C@H](CO)[C@@H](O)CCn1ccc(N)nc1=O	EC50	KOS	cytopathic effect	E6SM	>400 µg/mL
N#CSc1cn([C@@H]2O[C@H](CO)[C@@H](O)[C@H]2O)c(=O)[nH]c1=O	EC50	-	cytopathic effect	PRK	40 µg/mL
O=c1[nH]c(=O)n([C@H]2CC[C@@H](CO)O2)cc1/C=C/Br	EC50	MacIntyre	cytopathic effect	PRK	0.009 µg/mL
C=C(N=CC)c1nc(-c2ccccc2)n(C2O[C@H](CO)[C@@H](O)[C@H](O)[C@H]2O)n1	EC50	VMW 1837	cytopathic effect	E6SM	>200 µg/mL
Nc1nc2c(ncn2CC[C@H](O)CO)c(=O)[nH]1	EC50	C42	plaque count	BHK	33 µM
COc1ccc(Cc2nn(COCCO)c(=O)[nH]c2=O)cc1	EC50	-	cytopathic effect	HFF	>100 µM
CCCCCCC#Cc1c[nH]c(=O)[nH]c1=O	EC50	KOS	cytopathic effect	HEL	>200 µM
COC(=O)[C@H](C)NP(=O)(OCC1C/C1=C/n1cnc2c(N)ncnc21)Oc1ccccc1	EC50	-	plaque count	VERO	>1 µM
O=c1[nH]c(=O)n([C@H]2C[C@H](O)[C@@H](CO)O2)cc1CCCl	EC50	E-377	cytopathic effect	HFF	0.29 µM
CCCCCCCCC#Cc1cn(S(=O)(=O)c2ccc(C)cc2)c(=O)[nH]c1=O	EC50	KOS	cytopathic effect	HEL	>200 µM
Nc1ccn(COC(CO)CO)c(=O)n1	EC50	ICI	plaque count	VERO	140 µM
Nc1ccn([C@@H]2O[C@H](CO)[C@@H](O)[C@@H]2O)c(=O)n1	EC50	KOS	cytopathic effect	BSC-1	0.1 µg/mL
COc1cc(OC)c(NC(=S)Nc2ccc(NC(=O)c3ccco3)cc2)cc1Cl	EC50	Patton	-	HFF	>20 µM
O=c1[nH]c(=O)n([C@H]2C[C@H](O)[C@@H](CO)O2)cc1I	EC99	B2006 (TK-)	virus yield	PRK	>100 µg/mL
O=c1[nH]c(=O)n(COC(CO)CO)nc1Cc1ccc(Cl)cc1	EC50	-	cytopathic effect	HFF	>100 µM
CCCCCCCCCCCCCC(=O)NC(C)(C)C(=O)N1C[C@@H](O)CC1C(=O)N[C@@H](CC(C)C)C(=O)N[C@H](C(=O)N[C@@H](CCC(N)=O)C(=O)N[C@H](CO)CC(C)C)C(C)C	EC50	-	cytopathic effect	VERO	1.1 µM
O=c1[nH]c(=O)n(C[C@]2(CO)C[C@H]2CO)cc1/C=C/Br	EC50	Tomioka	plaque count	MRC-5	0.0093 µg/mL
CC=NC(=N)c1nc(-c2ccccc2)n(C/C=C/c2ccccc2)n1	EC50	KOS	cytopathic effect	E6SM	>4 µg/mL
C[C@H]1[C@H](O)[C@@H](CO)O[C@H]1n1cc(I)c(=O)[nH]c1=O	EC50	A4-3	cytopathic effect	RPMI8226	>74.5 µg/mL
CC=NC(=N)c1nc(-c2ccc(OC)cc2)n(COCCO)n1	EC50	KOS	cytopathic effect	E6SM	>200 µg/mL
O=C(NNCc1cccc(O)c1O)c1ccccc1O	EC50	KOS	PCR	HEP-2	1.1 µM
CC(C)c1ccc(-n2cc(-c3cn(C4CC(O)C(CO)O4)c(=O)[nH]c3=O)nn2)cc1	EC50	TK- KOS ACVr	-	-	>50 µM
O=c1[nH]c(=O)n([C@H]2C[C@H](O)[C@@H](CO)O2)cc1/C=C/Br	EC50	KOS	plaque count	HELA BU	<10 µM
C=C[C@@H](O)C1=C[C@@H](n2cnc3c(N)ncnc32)[C@H](O)[C@@H]1O	EC50	KOS	cytopathic effect	E6SM	>200 µg/mL
CCCCCCCCC#Cc1c[nH]c(=O)[nH]c1=O	EC50	KOS	cytopathic effect	HEL	>40 µM
Fc1cccc2nc3c(cnc4c3cnn4-c3ccccc3)c(Cl)c12	EC50	-	virus yield	VERO	0.07 µM
C=C(N=CC)c1nc(-c2ccc(C)cc2)n(C2O[C@H](CO)[C@@H](O)[C@H](O)[C@H]2O)n1	EC50	VMW 1837	cytopathic effect	E6SM	150 µg/mL
Nc1ncnc2c1ncn2[C@H]1C[C@]12C[C@H]2CO	EC50	-	-	BSC-1	70 µM
O=c1[nH]c(=O)n(COCCO)nc1Cc1ccccc1	EC50	-	cytopathic effect	HFF	>100 µM
O=C(O)CP(=O)(O)O	EC50	TK-	plaque count	VERO	37.1 µg/mL
CO[C@H](CO)[C@@H](O)CCn1cnc2c(=O)[nH]c(N)nc21	EC50	B2006 (TK-)	cytopathic effect	E6SM	>400 µg/mL
Nc1ncnc2c1ncn2[C@@H]1O[C@H](CO)[C@@H](O)[C@@H]1O	EC50	KOS	cytopathic effect	BSC-1	60 µg/mL
CC=NC(=N)c1nc(-c2cccc(OC)c2)n(C/C=C/c2ccccc2)n1	EC50	VMW 1837	cytopathic effect	E6SM	>10 µg/mL
Nc1nc2c(ncn2CCCCO)c(=O)[nH]1	EC50	7935-72	plaque count	VERO	2 µM
N=c1c2ncn([C@@H]3O[C@H](COP(=O)(O)O)[C@@H](O)[C@@H]3O)c2ncn1O	MIC	-	-	-	1–10 µg/mL
O=c1cc(-c2ccc(-c3ccccc3)cc2)oc2ccccc12	EC50	KOS	plaque count	VERO	510 µg/mL
Nc1nc2c(ncn2CCC(CO)CO)c(=O)[nH]1	EC50	-	-	-	0.04 µg/mL
C[C@H]1[C@H](O)[C@@H](CO)O[C@H]1n1cc(Br)c(=O)[nH]c1=O	EC50	F	cytopathic effect	RPMI8226	7.34 µg/mL
NC1CSCCN2CCc3c([nH]c4ccccc34)[C@H]12	EC50	VMW1837 (TK-/TK+)	cytopathic effect	E6SM	1 µg/mL
CO[C@H](CO)[C@@H](O)CCn1cc(C)c(=O)[nH]c1=O	EC50	KOS	cytopathic effect	E6SM	>400 µg/mL
O=c1c2cccc(Cl)c2[nH]c2cc3ccccc3c(O)c12	EC50	KOS	plaque count	VERO	>100 µM
CC=NC(=N)c1nc(-c2ccc(C)cc2)n(C/C=C/c2ccccc2)n1	EC50	VMW 1837	cytopathic effect	E6SM	>4 µg/mL
Cc1cc([C@@H](O)[C@@H](O)CO)co1	EC50	HF	plaque count	VERO	1.6 µM
CCC(=O)C(CCCCCCOc1ccc(OCCCCCCC(C(=O)CC)C(=O)CC)cc1)C(=O)CC	EC50	Sheely	plaque count	-	>2 µg/mL
O=c1[nH]c(=O)n([C@H]2C[C@H](O)[C@@H](CO)O2)cc1/C=C/Br	EC50	KOS	cytopathic effect	HEP-2	0.02 µg/mL
C#Cc1cn(S(=O)(=O)c2ccc(C)cc2)c(=O)[nH]c1=O	EC50	KOS	cytopathic effect	HEL	>200 µM
C=C(N=CC)c1nc(-c2cccc(C)c2)n([C@@H]2O[C@H](CO)[C@@H](O)[C@H]2O)n1	EC50	VMW 1837	cytopathic effect	E6SM	300 µg/mL
Nc1nc(=O)n([C@@H]2O[C@H](CO)[C@@H](O)[C@@H]2F)cc1I	EC50	KOS	cytopathic effect	RPMI8226	0.0013 µg/mL
O=c1[nH]c(=O)n([C@H]2C[C@H](O)[C@@H](CO)O2)cc1/C=C/C(F)(F)F	EC99	B2006 (TK-)	virus yield	PRK	>100 µg/mL
COC(=O)[C@H](C)NP(=O)(OC[C@@H]1C[C@]12C[C@@H]2n1cnc2c(N)ncnc21)Oc1ccccc1	EC50	-	-	VERO	20 µM
C=CC(CO)(CO)CCn1cnc2c(N)ncnc21	EC50	-	-	-	>100 µg/mL

A second listing of 4 rows from above:

structure | endpoint | strain | read by | cells | result
N=c1c2ncn([C@@H]3O[C@H](COP(=O)(O)O)[C@@H](O)[C@@H]3O)c2ncn1O | MIC | - | - | - | 1–10 µg/mL
C=C(N=CC)c1nc(-c2cccc(C)c2)n([C@@H]2O[C@H](CO)[C@@H](O)[C@H]2O)n1 | EC50 | VMW 1837 | cytopathic effect | E6SM | 300 µg/mL
O=C(O)CP(=O)(O)O | EC50 | TK- | plaque count | VERO | 37.1 µg/mL
O=c1[nH]c(=O)n([C@H]2C[C@H](O)[C@@H](CO)O2)cc1/C=C/Br | EC50 | KOS | cytopathic effect | HEP-2 | 0.02 µg/mL